Pooled drug test results. Numbers come from NIAID ChemDB, via PubChem.

All rows: growth or infection tests; agent: Mycobacterium avium complex; measure: MIC

An empty or dashed field is not shown. Rows are shuffled and stem from different studies.

| smiles | strain | result |
|---|---|---|
| CO[C@H]1/C=C/O[C@@]2(C)Oc3c(C)c(O)c4c(O)c(c(/C=N/N5CCN(C)CC5)c(O)c4c3C2=O)NC(=O)/C(C)=C\C=C\[C@H](C)[C@H](O)[C@@H](C)[C@@H](O)[C@@H](C)[C@H](OC(C)=O)[C@@H]1C | MO-1 | 16 µg/mL |
| CO[C@H]1/C=C/O[C@@]2(C)Oc3c(C)c(O)c4c(O)c(c5c(c4c3C2=O)NC2(CCN(CC(C)C)CC2)N=5)=NC(=O)/C(C)=C\C=C\[C@H](C)[C@H](O)[C@@H](C)[C@@H](O)[C@@H](C)[C@H](OC(C)=O)[C@@H]1C | 908-5 | 0.5 µg/mL |
| CC(C)N=c1cc2n(-c3ccc(Cl)cc3)c3ccccc3nc-2cc1Nc1ccc(Cl)cc1 | 535/HIV+ | 0.25 µg/mL |
| CCN[C@@H]1C[C@H](N)[C@@H](O[C@H]2OC(CN)=CC[C@H]2N)[C@H](O)[C@H]1O[C@H]1OC[C@](C)(O)[C@H](NC)[C@H]1O | 31 strains | 16 µg/mL |
| CCN(CC)c1nc2c(s1)c1c(O)c3c(O)c(C)c4c(c32)C(=O)[C@@](C)(O/C=C/[C@H](OC)[C@@H](C)[C@@H](OC(C)=O)[C@H](C)[C@H](O)[C@H](C)[C@@H](O)[C@@H](C)/C=C/C=C(/C)C(=O)N1)O4 | Isolate A | 0.03 µg/mL |
| CN1CCN(c2cc3c(cc2F)c(=O)c(C(=O)O)cn3-c2ccc(F)cc2)CC1 | 3213 | 16 µg/mL |
| NCC[C@H](O)C(=O)N[C@@H]1C[C@H](N)[C@@H](O[C@H]2O[C@H](CN)[C@@H](O)[C@H](O)[C@H]2O)[C@H](O)[C@H]1O[C@H]1O[C@H](CO)[C@@H](O)[C@H](N)[C@H]1O | Isolate 122 | 50 µg/mL |
| CC[C@@H](CO)NCCN[C@@H](CC)CO | 3216 | 16 µg/mL |
| CC1COc2c(N3CCN(C)CC3)c(F)cc3c(=O)c(C(=O)O)cn1c23 | 1257/HIV- | 4 µg/mL |
| CO[C@H]1/C=C/O[C@@]2(C)Oc3c(C)c(O)c4c(O)c(c5c(c4c3C2=O)NC2(CCN(CC(C)C)CC2)N=5)=NC(=O)/C(C)=C\C=C\[C@H](C)[C@H](O)[C@@H](C)[C@@H](O)[C@@H](C)[C@H](OC(C)=O)[C@@H]1C | N-260 | 0.2 µg/mL |
| CO[C@H]1/C=C/O[C@@]2(C)Oc3c(C)c(O)c4c(=O)c(c5oc6cc(N7CCN(CC(C)C)CC7)cc(=O)c6nc5c4c3=C2O)NC(=O)/C(C)=C\C=C\[C@H](C)[C@H](O)[C@@H](C)[C@@H](O)[C@@H](C)[C@H](OC(C)=O)[C@@H]1C | N-966 | 0.12 µg/mL |
| Cc1onc(-c2ccccc2)c1C(=O)N[C@@H]1C(=O)N2[C@@H]1SC(C)(C)[C@@H]2C(=O)O | 31 strains | 2 µg/mL |
| CO[C@H]1/C=C/O[C@@]2(C)Oc3c(C)c(O)c4c(O)c(c(/C=N/N5CCN(C6CCCC6)CC5)c(O)c4c3C2=O)NC(=O)/C(C)=C\C=C\[C@H](C)[C@H](O)[C@@H](C)[C@@H](O)[C@@H](C)[C@H](OC(C)=O)[C@@H]1C | 101 | 4 µg/mL |
| CO[C@H]1/C=C/O[C@@]2(C)Oc3c(C)c(O)c4c(O)c(c(/C=N/N5CCN(C6CCCC6)CC5)c(O)c4c3C2=O)NC(=O)/C(C)=C\C=C\[C@H](C)[C@H](O)[C@@H](C)[C@@H](O)[C@@H](C)[C@H](OC(C)=O)[C@@H]1C | Serotype 20 | >40 µg/mL |
| CC[C@H]1OC(=O)[C@H](C)[C@@H](O[C@H]2C[C@@](C)(OC)[C@@H](O)[C@H](C)O2)[C@H](C)[C@@H](O[C@@H]2O[C@H](C)C[C@H](N(C)C)[C@H]2O)[C@](C)(OC)C[C@@H](C)C(=O)[C@H](C)[C@@H](O)[C@]1(C)O | 1171 | 4 µg/mL |
| CC[C@H]1OC(=O)[C@H](C)[C@@H](O[C@H]2C[C@@](C)(OC)[C@@H](O)[C@H](C)O2)[C@H](C)[C@@H](O[C@@H]2O[C@H](C)C[C@H](N(C)C)[C@H]2O)[C@](C)(OC)C[C@@H](C)C(=O)[C@H](C)[C@@H](O)[C@]1(C)O | N-444 | 8 µg/mL |
| NC[C@H]1O[C@H](O[C@H]2[C@H](O)[C@@H](O[C@H]3O[C@H](CO)[C@@H](O)[C@H](N)[C@H]3O)[C@H](N)C[C@@H]2N)[C@H](N)[C@@H](O)[C@@H]1O | TMC 1473 | 0.78 µg/mL |
| NCC[C@H](O)C(=O)N[C@@H]1C[C@H](N)[C@@H](O[C@H]2O[C@H](CN)[C@@H](O)[C@H](O)[C@H]2O)[C@H](O)[C@H]1O[C@H]1O[C@H](CO)[C@@H](O)[C@H](N)[C@H]1O | 1069 | 2.5 µg/mL |
| CCC[C@@H]1C[C@@H](C(=O)N[C@@H]([C@H]2O[C@H](SC)[C@H](O)[C@@H](O)[C@H]2O)[C@H](C)Cl)N(C)C1 | 31 strains | 4 µg/mL |
| CC(C)N=c1cc2n(-c3ccc(Cl)cc3)c3ccccc3nc-2cc1Nc1ccc(Cl)cc1 | 1257/HIV- | 0.5 µg/mL |
| NCCC(O)C(N)CC(=O)NC1CNC(=O)C(C2CCN=C(N)N2)NC(=O)/C(=C/NC(N)=O)NC(=O)C(CO)NC(=O)C(CO)NC1=O | TMC 1403 | 3.13 µg/mL |
| CC(C)N=c1cc2n(-c3ccc(Cl)cc3)c3ccccc3nc-2cc1Nc1ccc(Cl)cc1 | ATCC35713 | 1.5 µg/mL |
| CCCCCCCCOC1OC(C)C(O[C@@H]2O[C@@H]([C@H](O)CO)[C@H](O)[C@H]2O)C(O)C1O | NJ3404 | >128 µg/mL |
| NC[C@H]1O[C@H](O[C@H]2[C@H](O)[C@@H](O[C@H]3O[C@H](CO)[C@@H](O)[C@H](N)[C@H]3O)[C@H](N)C[C@@H]2N)[C@H](O)[C@@H](O)[C@@H]1O | isolate C-29 30 | 400 µg/mL |
| CC[C@H]1OC(=O)[C@H](C)[C@@H](O[C@H]2C[C@@](C)(OC)[C@@H](O)[C@H](C)O2)[C@H](C)[C@@H](O[C@@H]2O[C@H](C)C[C@H](N(C)C)[C@H]2O)[C@](C)(OC)C[C@@H](C)C(=O)[C@H](C)[C@@H](O)[C@]1(C)O | MO-1 | 1 µg/mL |
| CC[C@H]1OC(=O)[C@H](C)[C@@H](O[C@H]2C[C@@](C)(OC)[C@@H](O)[C@H](C)O2)[C@H](C)[C@@H](O[C@@H]2O[C@H](C)C[C@H](N(C)C)[C@H]2O)[C@](C)(OC)C[C@@H](C)C(=O)[C@H](C)[C@@H](O)[C@]1(C)O | - | <0.5 µg/mL |
| CN[C@@H]1[C@H](O[C@H]2[C@H](O[C@H]3[C@H](O)[C@@H](O)[C@H](N=C(N)N)[C@@H](O)[C@@H]3N=C(N)N)O[C@@H](C)[C@]2(O)C=O)O[C@@H](CO)[C@H](O)[C@H]1O | 13016 (serotype 4) | 3.2 µg/mL |
| O=C1CN(/N=C/c2ccc([N+](=O)[O-])o2)C(=O)N1 | 31 strains | 64 µg/mL |
| CC[C@@H](CO)NCCN[C@@H](CC)CO | 13016 (serotype 4) | 0.8 µg/mL |
| NC[C@H]1O[C@H](O[C@H]2[C@H](O)[C@@H](O[C@H]3O[C@H](CO)[C@@H](O)[C@H](N)[C@H]3O)[C@H](N)C[C@@H]2N)[C@H](O)[C@@H](O)[C@@H]1O | N-962 (HIV+) | 8 µg/mL |
| N[C@@H]1CN(c2c(F)cc3c(=O)c(C(=O)O)cn([C@@H]4C[C@@H]4F)c3c2Cl)CC12CC2 | N-444 | 1 µg/mL |
| CO[C@H]1/C=C/O[C@@]2(C)Oc3c(C)c(O)c4c(O)c(c(/C=N/N5CCN(C)CC5)c(O)c4c3C2=O)NC(=O)/C(C)=C\C=C\[C@H](C)[C@H](O)[C@@H](C)[C@@H](O)[C@@H](C)[C@H](OC(C)=O)[C@@H]1C | N-444 | 8 µg/mL |
| NC[C@H]1O[C@H](O[C@H]2[C@H](O)[C@@H](O[C@H]3O[C@H](CO)[C@@H](O)[C@H](N)[C@H]3O)[C@H](N)C[C@@H]2N)[C@H](O)[C@@H](O)[C@@H]1O | TMC 1469 | 6.25 µg/mL |
| CO/N=C(\C(=O)N[C@@H]1C(=O)N2C(C(=O)O)=CCS[C@H]12)c1csc(N)n1 | J11 | 1.56 µg/mL |
| CO[C@H]1/C=C/O[C@@]2(C)Oc3c(C)c(O)c4c(O)c(c(/C=N/N5CCN(C)CC5)c(O)c4c3C2=O)NC(=O)/C(C)=C\C=C\[C@H](C)[C@H](O)[C@@H](C)[C@@H](O)[C@@H](C)[C@H](OC(C)=O)[C@@H]1C | Isolate A | 1 µg/mL |
| NCC[C@H](O)C(=O)N[C@@H]1C[C@H](N)[C@@H](O[C@H]2O[C@H](CN)[C@@H](O)[C@H](O)[C@H]2O)[C@H](O)[C@H]1O[C@H]1O[C@H](CO)[C@@H](O)[C@H](N)[C@H]1O | LPR | 32 µg/mL |
| CC[C@@H](CO)NCCN[C@@H](CC)CO | - | <0.8 µg/mL |
| CC[C@@H](CO)NCCN[C@@H](CC)CO | 211-5 | 3.8 µg/mL |
| CO[C@H]1/C=C/O[C@@]2(C)Oc3c(C)c(O)c4c(O)c(c(/C=N/N5CCN(C)CC5)c(O)c4c3C2=O)NC(=O)/C(C)=C\C=C\[C@H](C)[C@H](O)[C@@H](C)[C@@H](O)[C@@H](C)[C@H](OC(C)=O)[C@@H]1C | Strain #3 | 1 µg/mL |
| CN[C@H](CC(C)C)C(=O)N[C@H]1C(=O)N[C@@H](CC(N)=O)C(=O)N[C@H]2C(=O)N[C@H]3C(=O)N[C@H](C(=O)N[C@H](C(=O)O)c4cc(O)cc(O)c4-c4cc3ccc4O)[C@H](O)c3ccc(c(Cl)c3)Oc3cc2cc(c3O[C@@H]2O[C@H](CO)[C@@H](O)[C@H](O)[C@H]2O[C@H]2C[C@](C)(N)[C@H](O)[C@H](C)O2)Oc2ccc(cc2Cl)[C@H]1O | 31 strains | 16 µg/mL |
| CC(C)N=c1cc2n(-c3ccc(Cl)cc3)c3ccccc3nc-2cc1Nc1ccc(Cl)cc1 | Strain #3 | 0.12 µg/mL |
| CC[C@H]1OC(=O)[C@H](C)[C@@H](O[C@H]2C[C@@](C)(OC)[C@@H](O)[C@H](C)O2)[C@H](C)[C@@H](O[C@@H]2O[C@H](C)C[C@H](N(C)C)[C@H]2O)[C@](C)(O)C[C@@H](C)C(=O)[C@H](C)[C@@H](O)[C@]1(C)O | 3216 | 32 µg/mL |
| COc1c(N2CCNC(C)C2)c(F)cc2c(=O)c(C(=O)O)cn(C3CC3)c12 | N-444 | 2 µg/mL |
| NC[C@@H]1O[C@H](O[C@H]2[C@@H](O)[C@H](O[C@@H]3[C@@H](O)[C@H](N)C[C@H](N)[C@H]3O[C@H]3O[C@H](CO)[C@@H](O)[C@H](O)[C@H]3N)O[C@@H]2CO)[C@H](N)[C@@H](O)[C@@H]1O | CH-2/HIV+ | 3.12 µg/mL |
| CO[C@H]1/C=C/O[C@@]2(C)Oc3c(C)c(O)c4c(O)c(c(/C=N/N5CCN(C)CC5)c(O)c4c3C2=O)NC(=O)/C(C)=C\C=C\[C@H](C)[C@H](O)[C@@H](C)[C@@H](O)[C@@H](C)[C@H](OC(C)=O)[C@@H]1C | CIPT 140310002 | 0.1 µg/mL |
| N[C@@H]1CN(c2c(F)cc3c(=O)c(C(=O)O)cn([C@@H]4C[C@@H]4F)c3c2Cl)CC12CC2 | N-444 | 1 µg/mL |
| CN[C@@H]1[C@@H](O)[C@@H](O[C@@H]2[C@@H](O)[C@H](O[C@H]3O[C@H](CN)CC[C@H]3N)[C@@H](N)C[C@H]2N)OC[C@]1(C)O | Isolate 49 | 3.13 µg/mL |
| CO[C@H]1/C=C/O[C@@]2(C)Oc3c(C)c(O)c4c(O)c(c(/C=N/N5CCN(C/C=C/c6ccccc6)CC5)c(O)c4c3C2=O)NC(=O)/C(C)=C\C=C\[C@H](C)[C@H](O)[C@@H](C)[C@@H](O)[C@@H](C)[C@H](OC(C)=O)[C@@H]1C | LR562 | ≤0.015 µg/mL |

A second listing of 3 rows from above:

smiles | strain | result
CO[C@H]1/C=C/O[C@@]2(C)Oc3c(C)c(O)c4c(O)c(c5c(c4c3C2=O)NC2(CCN(CC(C)C)CC2)N=5)=NC(=O)/C(C)=C\C=C\[C@H](C)[C@H](O)[C@@H](C)[C@@H](O)[C@@H](C)[C@H](OC(C)=O)[C@@H]1C | N-260 | 0.2 µg/mL
CO[C@H]1/C=C/O[C@@]2(C)Oc3c(C)c(O)c4c(O)c(c5c(c4c3C2=O)NC2(CCN(CC(C)C)CC2)N=5)=NC(=O)/C(C)=C\C=C\[C@H](C)[C@H](O)[C@@H](C)[C@@H](O)[C@@H](C)[C@H](OC(C)=O)[C@@H]1C | 908-5 | 0.5 µg/mL
CC(C)N=c1cc2n(-c3ccc(Cl)cc3)c3ccccc3nc-2cc1Nc1ccc(Cl)cc1 | ATCC35713 | 1.5 µg/mL